This assay addresses MERS-CoV S-protein (on 293FT effector cells) (MERS-CoV, UniProt K9N5Q8). As to the kind of experiment: cell-based or functional assay.

B1: Peptide 6 (peptide)
peptide: SLTQINWTLLDLTYEMESLQQVVKALNEYYIDLKHL
With B1, the “EC50 (µM), cell-cell fusion assay” value was found to be 0.917 µM.

B2: Peptide 7 (peptide)
peptide: SLTQINWTLLDLTYEMESLQQVMKALNEYYIDLKHL
Consider B2, for which the “EC50 (µM), cell-cell fusion assay” value was found to be 2.35 µM.

B3: Peptide 5 (peptide)
peptide: SLTQINWTLLDLTYEMESLQQVVKALNEYYIDLKE
As to B3, the “EC50 (µM), cell-cell fusion assay” value is 0.432 µM.

B4: Peptide 11 (peptide)
peptide: SLTQINTTLLDLEYEMRSLEEVVKKLNESYIDLKEL
Consider B4, for which the “EC50 (µM), cell-cell fusion assay” value is 0.039 µM.

B5: Peptide 12 (peptide)
peptide: SLTQINTTLLDLEYEMRSLEEVVKKLNESYIDEKEL
As to B5, the “EC50 (µM), cell-cell fusion assay” value worked out at 0.831 µM.

For the origin of these results see patent publication US20210332086A1 (published 2021).
